Among the data in patent US6596723B1, “Fungal efflux pump inhibitors” (Essential Therapeutics, Inc., priority 2001, dated 2003) are MPC8 values, retold here.

The subject of test [1] is Candida albicans YEM15 (over-expressing the CDR1 and CDR2 pumps). Type of test: cell-based. The conditions noted are these: strain YEM15; concentration of efflux pump inhibitor necessary to reduce the fluconazole MIC 8-fold.
Test [2] deals with C. glabrata YEM19 (over-expressing the CgCDR1 and CgCDR2 pumps). Type of test: cell-based, Candida glabrata. The following applies: strain YEM19; efflux pump inhibitor concentration reducing fluconazole MIC 8-fold.

SMILES strings stand for the structures.

Regarding `COc1ccc(NC(=O)N(c2ccc(OC)cc2OC)C(C)c2nc3ccccc3c(=O)n2N2CCN(C)CC2)cc1` (centres unmarked) [Compound 15, 1-(2,4-Dimethoxy-phenyl)-3-(4-methoxy-phenyl)-1-{1-[3-(4-methyl-piperazin-1-yl)-4-oxo-3,4-dihydro-quinazolin-2-yl]-ethyl}-urea], the MPC8 was 16 µg/mL in test [1] and 2 µg/mL in test [2].

For the molecule `COc1ccc(N(C(=O)Oc2ccc(Cl)cc2)C(C)c2nc3ccccc3c(=O)n2N2CCN(C)CC2)c(OC)c1` (centres unmarked) [Compound 17, (2,4-Dimethoxy-phenyl)-{1-[3-(4-methyl-piperazin-1-yl)-4-oxo-3,4-dihydro-quinazolin-2-yl]-ethyl}-carbamic acid 4-chloro-phenyl ester], the MPC8 in test [1] worked out at 8 µg/mL; in test [2], 16 µg/mL.

As for `CC(c1nc2ccccc2c(=O)n1N1CCN(C)CC1)N(C(=O)Nc1cccc(Cl)c1)c1ccc2c(c1)OCO2` (centres unmarked) [Compound 18, 1-Benzo[1,3]dioxol-5-yl-3-(3-chloro-phenyl)-1-{1-[3-(4-methyl-piperazin-1-yl)-4-oxo-3,4-dihydro-quinazolin-2-yl]-ethyl}-urea], the MPC8 in test [1] worked out at 0.125 µg/mL; in test [2] it was 32 µg/mL.

As to `COc1ccc(N(C(=O)Oc2ccc(C)cc2)C(C)c2nc3ccccc3c(=O)n2N2CCN(C)CC2)c(OC)c1` (centres unmarked) [Compound 19, (2,4-Dimethoxy-phenyl)-{1-[3-(4-methyl-piperazin-1-yl)-4-oxo-3,4-dihydro-quinazolin-2-yl]-ethyl}-carbamic acid p-tolyl ester], the MPC8 in test [1] turned out to be 16 µg/mL; in test [2], 32 µg/mL.

Take `COc1ccc(N(C(=O)Nc2cccc(C)c2)C(C)c2nc3ccccc3c(=O)n2N2CCN(C)CC2)c(OC)c1` (centres unmarked) [Compound 20, 1-(2,4-Dimethoxy-phenyl)-1-{1-[3-(4-methyl-piperazin-1-yl)-4-oxo-3,4-dihydro-quinazolin-2-yl]-ethyl}-3-m-tolyl-urea]: the MPC8 in test [1] was determined as 0.5 µg/mL; in test [2] it was 1 µg/mL.

For `COc1ccc(N(C(=O)Nc2cccc(F)c2)C(C)c2nc3ccccc3c(=O)n2N2CCN(C)CC2)c(OC)c1` (centres unmarked) [Compound 21, 1-(2,4-Dimethoxy-phenyl)-3-(3-fluoro-phenyl)-1-{1-[3-(4-methyl-piperazin-1-yl)-4-oxo-3,4-dihydro-quinazolin-2-yl)-ethyl}-urea], the MPC8 was found to be 0.25 µg/mL in test [1] and 2 µg/mL in test [2].

On to `COc1ccc(N(C(=O)Nc2cccc(Cl)c2)C(C)c2nc3ccccc3c(=O)n2C2CCN(C)CC2)c(OC)c1` (centres unmarked) [Compound 22, 3-(3-Chloro-phenyl)-1-(2,4-dimethoxy-phenyl)-1-{1-[3-(1-methyl-piperidin-4-yl)-4-oxo-3,4-dihydro-quinazolin-2-yl]-ethyl}-urea], for which the MPC8 worked out at 16 µg/mL in test [1] and 32 µg/mL in test [2].

Take `COc1ccc(N(C(=O)Nc2cccc(Cl)c2)C(C)c2nc3ccc(Cl)cc3c(=O)n2N2CCN(C)CC2)c(OC)c1` (centres unmarked) [Compound 23, 1-{1-[6-Chloro-3-(4-methyl-piperazin-1-yl)-4-oxo-3,4-dihydro-quinazolin-2-yl)-ethyl}-3-(3-chloro-phenyl)-1-(2,4-dimethoxy-phenyl)-urea]: the MPC8 in test [1] was determined as 0.25 µg/mL; in test [2] it was 2 µg/mL.

`COc1ccc(N(C(=O)Nc2ccccc2)C(C)c2nc3ccc(Cl)cc3c(=O)n2N2CCN(C)CC2)c(OC)c1` (centres unmarked) [Compound 24, 1-{1-[6-Chloro-3-(4-methyl-piperazin-1-yl)-4-oxo-3,4-dihydro-quinazolin-2-yl]-ethyl}-1-(2,4-dimethoxy-phenyl)-3-phenyl-urea]: the results for the MPC8 in test [1] and in test [2] were 0.125 µg/mL and 4 µg/mL, respectively.

`COc1ccc(NC(=O)N(c2ccc(OC)cc2OC)C(C)c2nc3ccc(Cl)cc3c(=O)n2N2CCN(C)CC2)cc1` (centres unmarked) [Compound 25, 1-{1-[6-Chloro-3-(4-methyl-piperazin-1-yl)-4-oxo-3,4-dihydro-quinazolin-2-yl]-ethyl}-1-(2,4-dimethoxy-phenyl)-3-(4-methoxy-phenyl)-urea]: the MPC8 is 1 µg/mL in test [1] and 4 µg/mL in test [2].

Turning to `CC(c1nc2ccccc2c(=O)n1N1CCN(C)CC1)N(C(=O)Nc1ccc(Cl)cc1)c1ccc2c(c1)OCO2` (centres unmarked) [Compound 31, 1-Benzo[1,3]dioxol-5-yl-3-(4-chloro-phenyl)-1-{1-[3-(4-methyl-piperazin-1-yl)-4-oxo-3,4-dihydro-quinazolin-2-yl]-ethyl}-urea], the MPC8 in test [1] turned out to be 2 µg/mL; in test [2], 16 µg/mL.

Take `COc1ccc(N(C(=O)Oc2ccc(Cl)cc2)C(C)c2nc3ccc(Cl)cc3c(=O)n2N2CCN(C)CC2)c(OC)c1` (centres unmarked) [Compound 35, {1-[6-Chloro-3-(4-methyl-piperazin-1-yl)-4-oxo-3,4-dihydro-quinazolin-2-yl]-ethyl}-(2,4-dimethoxy-phenyl)-carbamic acid 4-chloro-phenyl ester]: the MPC8 turned out to be 4 µg/mL in test [1] and 8 µg/mL in test [2].

As to `COc1ccc(N(C(=O)Nc2ccc(Cl)cc2)C(C)c2nc3ccc(F)cc3c(=O)n2N2CCN(C)CC2)c(OC)c1` (centres unmarked) [Compound 38, 3-(4-Chloro-phenyl)-1-(2,4-dimethoxy-phenyl)-1-{1-[6-fluoro-3-(4-methyl-piperazin-1-yl)-4-oxo-3,4-dihydro-quinazolin-2-yl]-ethyl}-urea], the MPC8 in test [1] was 0.5 µg/mL; in test [2], 0.25 µg/mL.

On to `COc1ccc(N(C(=O)Nc2ccc(F)cc2)C(C)c2nc3ccccc3c(=O)n2N2CCN(CCO)CC2)c(OC)c1` (centres unmarked) [Compound 40, 1-(2,4-Dimethoxy-phenyl)-3-(4-fluoro-phenyl)-1-(1-{3-[4-(2-hydroxy-ethyl)-piperazin-1-yl]-4-oxo-3,4-dihydro-quinazolin-2-yl}-ethyl)-urea], for which the MPC8 in test [1] amounted to 2 µg/mL; in test [2] it was 4 µg/mL.

Turning to `COc1ccc(N(C(=O)Nc2ccc(F)cc2)C(C)c2nc3ccccc3c(=O)n2N2CCN(CCCl)CC2)c(OC)c1` (centres unmarked) [Compound 41, 1-(1-{3-[4-(2-Chloro-ethyl)-piperazin-1-yl)-4-oxo-3,4-dihydro-quinazolin-2-yl}-ethyl)-1-(2,4-dimethoxy-phenyl)-3-(4-fluoro-phenyl)-urea], the MPC8 in test [1] and in test [2] was 8 µg/mL each time.

For `COc1ccc(N(C(=O)Nc2ccc(F)cc2)C(C)c2nc3ccc(F)cc3c(=O)n2N2CCN(CCO)CC2)c(OC)c1` (centres unmarked) [Compound 42], the MPC8 in test [1] and in test [2] was 1 µg/mL in each case.

On to `COc1ccc(N(C(=O)Nc2ccc(Cl)cc2)C(C)c2nc3ccc(Cl)cc3c(=O)n2CCNC(C)=N)c(OC)c1` (centres unmarked) [Compound 43, N-[2-(6-Chloro-2-{1-[3-(4-chloro-phenyl)-1-(2,4-dimethoxy-phenyl)-ureido]-ethyl}-4-oxo-4H-quinazolin-3-yl)-ethyl]-acetamidine], for which the MPC8 in test [1] came to 4 µg/mL; in test [2] it was 1 µg/mL.

Regarding `COc1ccc(N(C(=O)Nc2ccc(C)cc2)C(C)c2nc3ccc(C)cc3c(=O)n2N2CCN(C)CC2)c(OC)c1` (centres unmarked) [Compound 44, 1-(2,4-Dimethoxy-phenyl)-1-{1-[6-methyl-3-(4-methyl-piperazin-1-yl)-4-oxo-3,4-dihydro-quinazolin-2-yl]-ethyl}-3-p-tolyl-urea], the values for the MPC8 in test [1] and in test [2] were 0.25 µg/mL and 2 µg/mL, respectively.

Turning to `COc1ccc(N(C(=O)Nc2ccc(C)cc2)C(C)c2nc3ccc(OC)cc3c(=O)n2N2CCN(C)CC2)c(OC)c1` (centres unmarked) [Compound 45, 1-(2,4-Dimethoxy-phenyl)-1-{1-[6-methoxy-3-(4-methyl-piperazin-1-yl)-4-oxo-3,4-dihydro-quinazolin-2-yl]-ethyl}-3-p-tolyl-urea], the MPC8 in test [1] and in test [2] was 1 µg/mL each time.
